Test results reported in patent US20060228754A1 (priority 1998, published 2006).
Like-named read-outs stand apart in the source and are kept apart here.

Molecular target: monoclonal antibody that recognizes the 3,6-dideoxy-D-galactose (abequose) epitope in Salmonella paratyphi B O-antigens

SMILES | Kd | Kd (read-out: Kd of indicator compound) | Kd (read-out: Kd ± s, FC/MS Ind.) | Kd (read-out: Kd ± s, FC/MS Mix) | Kd (read-out: Kd from x-intercept of ([A]0(V−V0))^−1 versus [A]0^−1 plot, infused at various concentrations, FIG. 6)
COC1OC(CO)C(O)C(OC2OC(C)C(O)CC2O)C1O (stereo not shown) [compound 4] | 200 µM | 200 µM | 185 ± 17 µM | 178 ± 23 µM | 
COC1OC(CO)C(O)C(OC2OC(C)C(O)CC2O)C1OC1OC(CO)C(O)C(O)C1O (stereo not shown) [compound 5] |  |  | 12.6 ± 1.3 µM | 10.2 ± 1.1 µM | 11.2 µM
COC1OC(CO)C(OC2OC(CO)C(O)C(OC3OC(CO)C(O)C(OC4OC(C)C(O)CC4O)C3OC3OC(CO)C(OC4OC(CO)C(OC5OC(CO)C(O)C(O)C5O)C(O)C4O)C(O)C3O)C2O)C(O)C1O (stereo not shown) [compound 6, αGlc(1-4)βGlc(1-4)αGal(1-2)-[αAbe(1-3)]αMan(1-3)αGlc(1-4)βGlc-OCH3] | 1.5 µM |  | 1.79 ± 0.2 µM | 1.71 ± 0.16 µM | 
